# Target: LRP2/gp330 purified from rat kidneys (rat) (UniProt P98158)
# Amino acid sequences for entries named in this document (tags omitted). Residues count along the entry.
# UniProt P98158, 26-4660: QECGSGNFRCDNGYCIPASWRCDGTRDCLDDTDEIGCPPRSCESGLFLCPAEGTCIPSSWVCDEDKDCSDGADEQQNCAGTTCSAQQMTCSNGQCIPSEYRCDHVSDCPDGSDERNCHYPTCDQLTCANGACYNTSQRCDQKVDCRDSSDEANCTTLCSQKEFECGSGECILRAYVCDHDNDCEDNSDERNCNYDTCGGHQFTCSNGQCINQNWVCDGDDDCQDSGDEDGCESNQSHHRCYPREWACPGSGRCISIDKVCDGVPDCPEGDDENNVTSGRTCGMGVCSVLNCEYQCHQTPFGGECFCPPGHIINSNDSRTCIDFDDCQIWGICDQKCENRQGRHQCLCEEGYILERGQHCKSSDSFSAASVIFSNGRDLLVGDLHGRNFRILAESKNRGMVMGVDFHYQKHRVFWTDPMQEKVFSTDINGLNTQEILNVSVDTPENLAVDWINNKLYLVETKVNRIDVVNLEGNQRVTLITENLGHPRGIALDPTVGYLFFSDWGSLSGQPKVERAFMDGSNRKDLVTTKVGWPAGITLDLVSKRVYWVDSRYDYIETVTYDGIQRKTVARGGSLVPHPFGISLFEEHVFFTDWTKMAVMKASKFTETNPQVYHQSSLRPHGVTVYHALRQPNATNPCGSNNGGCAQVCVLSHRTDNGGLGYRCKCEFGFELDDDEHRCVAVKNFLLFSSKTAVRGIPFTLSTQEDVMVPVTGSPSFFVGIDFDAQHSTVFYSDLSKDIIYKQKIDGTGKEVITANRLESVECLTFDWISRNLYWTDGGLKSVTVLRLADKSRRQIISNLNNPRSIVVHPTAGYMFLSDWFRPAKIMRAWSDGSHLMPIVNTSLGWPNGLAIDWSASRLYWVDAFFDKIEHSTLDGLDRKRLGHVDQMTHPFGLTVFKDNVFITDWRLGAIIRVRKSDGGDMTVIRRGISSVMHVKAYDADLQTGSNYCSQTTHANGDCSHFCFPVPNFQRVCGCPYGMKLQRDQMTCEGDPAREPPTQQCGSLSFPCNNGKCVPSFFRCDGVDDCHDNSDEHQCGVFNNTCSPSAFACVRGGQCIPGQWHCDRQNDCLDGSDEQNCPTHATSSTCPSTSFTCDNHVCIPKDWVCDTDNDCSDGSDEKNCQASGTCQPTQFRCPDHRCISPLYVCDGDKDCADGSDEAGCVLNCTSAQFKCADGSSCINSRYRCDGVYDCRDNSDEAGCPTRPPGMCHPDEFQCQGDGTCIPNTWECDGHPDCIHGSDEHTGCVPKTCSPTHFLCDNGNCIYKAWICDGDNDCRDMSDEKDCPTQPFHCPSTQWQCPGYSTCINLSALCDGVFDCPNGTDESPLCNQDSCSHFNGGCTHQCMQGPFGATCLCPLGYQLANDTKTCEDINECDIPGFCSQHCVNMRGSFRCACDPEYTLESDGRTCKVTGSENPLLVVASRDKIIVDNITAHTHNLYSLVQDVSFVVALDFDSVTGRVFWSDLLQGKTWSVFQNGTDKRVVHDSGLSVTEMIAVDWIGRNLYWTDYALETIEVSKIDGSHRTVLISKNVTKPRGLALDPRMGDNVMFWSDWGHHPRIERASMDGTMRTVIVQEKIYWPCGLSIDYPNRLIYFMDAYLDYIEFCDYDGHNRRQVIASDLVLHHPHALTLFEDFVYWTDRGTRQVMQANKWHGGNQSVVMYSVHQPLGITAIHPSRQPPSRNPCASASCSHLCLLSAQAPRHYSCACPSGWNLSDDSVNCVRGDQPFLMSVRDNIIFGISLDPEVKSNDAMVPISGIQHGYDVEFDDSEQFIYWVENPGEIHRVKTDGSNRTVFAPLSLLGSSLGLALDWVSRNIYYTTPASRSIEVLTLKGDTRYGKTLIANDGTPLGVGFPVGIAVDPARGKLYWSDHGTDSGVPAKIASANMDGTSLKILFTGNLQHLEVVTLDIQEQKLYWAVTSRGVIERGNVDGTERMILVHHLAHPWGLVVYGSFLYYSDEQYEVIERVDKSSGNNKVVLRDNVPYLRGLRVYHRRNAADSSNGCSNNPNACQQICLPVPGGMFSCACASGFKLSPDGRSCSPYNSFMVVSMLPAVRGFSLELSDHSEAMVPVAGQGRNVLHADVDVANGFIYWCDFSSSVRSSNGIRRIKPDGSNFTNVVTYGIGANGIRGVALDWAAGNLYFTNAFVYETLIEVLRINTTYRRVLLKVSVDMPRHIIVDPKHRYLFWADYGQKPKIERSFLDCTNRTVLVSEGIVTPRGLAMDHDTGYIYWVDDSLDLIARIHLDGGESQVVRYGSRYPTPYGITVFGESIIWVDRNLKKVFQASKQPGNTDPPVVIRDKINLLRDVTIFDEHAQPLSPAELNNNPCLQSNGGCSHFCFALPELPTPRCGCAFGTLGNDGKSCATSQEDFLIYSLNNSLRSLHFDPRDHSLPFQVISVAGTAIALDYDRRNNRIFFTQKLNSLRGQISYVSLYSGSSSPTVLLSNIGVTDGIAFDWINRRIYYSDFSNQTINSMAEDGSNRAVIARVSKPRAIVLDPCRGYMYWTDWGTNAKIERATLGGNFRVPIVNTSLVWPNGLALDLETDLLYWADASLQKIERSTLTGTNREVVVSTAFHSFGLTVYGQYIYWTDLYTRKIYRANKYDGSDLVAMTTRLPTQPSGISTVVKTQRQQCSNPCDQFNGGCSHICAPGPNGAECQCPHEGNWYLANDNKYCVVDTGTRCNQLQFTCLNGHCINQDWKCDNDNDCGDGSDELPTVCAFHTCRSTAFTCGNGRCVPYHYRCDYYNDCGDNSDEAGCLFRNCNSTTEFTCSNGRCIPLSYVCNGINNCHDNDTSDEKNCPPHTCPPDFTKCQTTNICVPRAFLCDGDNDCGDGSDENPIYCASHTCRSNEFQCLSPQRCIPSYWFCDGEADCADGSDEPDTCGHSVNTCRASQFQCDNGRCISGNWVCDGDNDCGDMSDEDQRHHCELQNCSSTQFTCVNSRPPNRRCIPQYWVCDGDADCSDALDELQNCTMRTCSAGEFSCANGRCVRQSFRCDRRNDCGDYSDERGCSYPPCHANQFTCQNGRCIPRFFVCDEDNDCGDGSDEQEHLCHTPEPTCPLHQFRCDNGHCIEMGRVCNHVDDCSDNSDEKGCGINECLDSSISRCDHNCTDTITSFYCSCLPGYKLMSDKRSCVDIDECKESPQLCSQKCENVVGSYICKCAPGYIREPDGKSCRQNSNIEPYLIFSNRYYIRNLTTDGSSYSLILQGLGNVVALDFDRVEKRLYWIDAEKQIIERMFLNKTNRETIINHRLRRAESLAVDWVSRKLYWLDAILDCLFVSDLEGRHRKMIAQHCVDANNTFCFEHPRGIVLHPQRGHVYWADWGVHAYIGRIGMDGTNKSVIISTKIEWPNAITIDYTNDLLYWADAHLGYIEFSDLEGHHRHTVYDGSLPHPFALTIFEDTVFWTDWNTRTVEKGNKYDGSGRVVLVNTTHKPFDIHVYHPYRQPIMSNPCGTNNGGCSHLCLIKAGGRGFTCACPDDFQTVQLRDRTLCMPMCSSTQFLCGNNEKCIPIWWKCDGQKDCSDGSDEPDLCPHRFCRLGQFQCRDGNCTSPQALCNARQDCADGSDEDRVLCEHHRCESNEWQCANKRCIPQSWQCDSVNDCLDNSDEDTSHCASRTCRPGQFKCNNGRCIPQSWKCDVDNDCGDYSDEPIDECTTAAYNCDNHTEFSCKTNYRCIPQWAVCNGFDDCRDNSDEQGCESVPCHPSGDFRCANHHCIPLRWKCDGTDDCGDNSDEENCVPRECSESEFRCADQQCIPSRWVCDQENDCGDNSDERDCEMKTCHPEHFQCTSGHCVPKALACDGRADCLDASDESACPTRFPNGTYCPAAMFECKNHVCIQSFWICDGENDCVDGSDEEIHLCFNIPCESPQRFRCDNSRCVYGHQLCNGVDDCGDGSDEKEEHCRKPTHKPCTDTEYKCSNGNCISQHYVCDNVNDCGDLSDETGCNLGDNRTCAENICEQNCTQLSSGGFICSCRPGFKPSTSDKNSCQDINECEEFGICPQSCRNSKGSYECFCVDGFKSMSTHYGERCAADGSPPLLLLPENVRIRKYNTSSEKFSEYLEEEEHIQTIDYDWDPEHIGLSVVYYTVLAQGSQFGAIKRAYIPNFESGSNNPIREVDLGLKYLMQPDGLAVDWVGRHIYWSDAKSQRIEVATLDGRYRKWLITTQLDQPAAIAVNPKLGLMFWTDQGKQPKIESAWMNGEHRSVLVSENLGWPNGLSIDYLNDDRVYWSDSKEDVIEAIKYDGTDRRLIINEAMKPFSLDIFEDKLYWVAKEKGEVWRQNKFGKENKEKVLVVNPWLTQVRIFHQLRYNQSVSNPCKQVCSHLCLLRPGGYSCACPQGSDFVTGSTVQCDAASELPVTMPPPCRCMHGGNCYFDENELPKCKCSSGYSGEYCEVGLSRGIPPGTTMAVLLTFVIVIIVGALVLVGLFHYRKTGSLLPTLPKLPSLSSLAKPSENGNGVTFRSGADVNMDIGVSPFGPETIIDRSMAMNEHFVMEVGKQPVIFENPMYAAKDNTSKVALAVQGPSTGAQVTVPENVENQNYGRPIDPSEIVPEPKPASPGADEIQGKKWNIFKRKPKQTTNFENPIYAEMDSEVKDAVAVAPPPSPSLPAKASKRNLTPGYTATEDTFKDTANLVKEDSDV
# Assay: SPR; Biacore 3000; receptor amine-coupled to CM5 chip; ligand flowed in HBS-P (0.01 M HEPES pH 7.4, 0.15 M NaCl, 0.005% P20) with 1 mM CaCl2, 10 ul/min, 25 C; kinetic fit to a 1:1 Langmuir model
substance,measurement,value
SARS-CoV-2 spike protein S1 subunit (Val16-Arg685) fused to the Fc region of mouse IgG1 (from UniProt P0DTC2 16-685) (Fc fusion),Kd,40 nM
same,koff,0.00036 s⁻¹
same,kon,9400 M⁻¹ s⁻¹

# Reference: article PMC12192683
